For the assay, the target named is Recombinant Saccharomyces cerevisiae histone H3/H4 (Saccharomyces cerevisiae). Put plainly: pull-down; FACT with GFP-tagged full-length or ΔN Spt16 held on GFP nanobody beads (washed with IP buffer with 500 mM NaCl, then 100 mM NaCl); recombinant histone H3/H4 added; bound proteins by immunoblotting. The conditions noted are these: both partners purified.

This note sets out measurements from paper PMC10681723, “The N-terminus of Spt16 anchors FACT to MCM2–7 for parental histone recycling” (Nucleic Acids Research, 2023).

B1: Yeast FACT complex containing GFP-tagged full-length (FL) Spt16 (complex, budding yeast (S. cerevisiae))
chain 1: MEELNIDFDVFKKRIELLYSKYNEFEGSPNSLLFVLGSSNAENPYQKTTILHNWLLSYEFPATLIALVPGKVIIITSSAKAKHLQKAIDLFKDPESKITLELWQRNNKEPELNKKLFDDVIALINSAGKTVGIPEKDSYQGKFMTEWNPVWEAAVKENEFNVIDISLGLSKVWEVKDVNEQAFLSVSSKGSDKFMDLLSNEMVRAVDEELKITNAKLSDKIENKIDDVKFLKQLSPDLSALCPPNYKFNFDLLDWTYSPIIQSGKKFDLRVSARSTNDQLYGNGCILASCGIRYNNYCSNITRTFLIDPSEEMANNYDFLLTLQKEIVTNILKPGRTPKEVYESVIEYIEKTKPELVPNFTKNIGSLIGLEFRDSNFILNVKNDYRKIQRGDCFNISFGFNNLKDSQSANNYALQLADTVQIPLDETEPPRFLTNYTKAKSQISFYFNNEEEDNNKKKSSPATKVPSKPDRNSKILRTKLRGEARGGAEDAQKEQIRKENQKKLHEKLEKNGLLRFSAADANGPDSEPRQYFKKYESYVRDSQLPTNIRDLRIHVDWKSQTIILPIYGRPVPFHINSYKNGSKNEEGEYTYLRLNFNSPGSSGGISKKVEELPYEESADNQFVRSITLRSKDGDRMSETFKQIADLKKEATKREQERKALADVVQQDKLIENKTGRTKRLDQIFVRPNPDTKRVPSTVFIHENGIRFQSPLRTDSRIDILFSNIKNLIFQSCKGELIVVIHIHLKNPILMGKKKIQDVQFYREASDMSVDETGGGRRGQSRFRRYGDEDELEQEQEERRKRAALDKEFKYFADAIAEASNGLLTVENTFRDLGFQGVPNRSAVFCMPTTDCLVQLIEPPFLVINLEEVEICILERVQFGLKNFDMVFVYKDFNKPVTHINTVPIESLDFLKQWLTDMDIPYTVSTINLNWATIMKSLQDDPYQFFLDGGWNFLATGSDDEASDESEEEVSEYEASEDDVSDESAFSEDEEGSEVDDDISGDESEDYTGDESEEGEDWDELEKKAARADRGANFRD
chain 2: MSTDFDRIYLNQSKFSGRFRIADSGLGWKISTSGGSAANQARKPFLLPATELSTVQWSRGCRGYDLKINTKNQGVIQLDGFSQDDYNLIKNDFHRRFNIQVEQREHSLRGWNWGKTDLARNEMVFALNGKPTFEIPYARINNTNLTSKNEVGIEFNIQDEEYQPAGDELVEMRFYIPGVIQTNVDENMTKKEESSNEVVPKKEDGAEGEDVQMAVEEKSMAEAFYEELKEKADIGEVAGDAIVSFQDVFFTTPRGRYDIDIYKNSIRLRGKTYEYKLQHRQIQRIVSLPKADDIHHLLVLAIEPPLRQGQTTYPFLVLQFQKDEETEVQLNLEDEDYEENYKDKLKKQYDAKTHIVLSHVLKGLTDRRVIVPGEYKSKYDQCAVSCSFKANEGYLYPLDNAFFFLTKPTLYIPFSDVSMVNISRAGQTSTSSRTFDLEVVLRSNRGSTTFANISKEEQQLLEQFLKSKNLRVKNEDREVQERLQTALGSDSDEEDINMGSAGEDDESVDEDFQVSSDNDADEVAEEFDSDAALSDAEGGSDEERPSKKPKVE
notes: Spt16, subunit of the FACT complex, budding yeast; Pob3, subunit of the FACT complex, budding yeast; co-purified with tagged Spt16; also called FL FACT complex; wild-type FACT complex; source: purified from yeast cells on homemade GFP nanobody beads (500 mM NaCl wash)
For the molecule B1, the binding result is “binds”.

B2: Yeast FACT complex containing GFP-tagged N-domain-deletion (ΔN) Spt16 (complex, budding yeast (S. cerevisiae))
chain 1: MRGGAEDAQKEQIRKENQKKLHEKLEKNGLLRFSAADANGPDSEPRQYFKKYESYVRDSQLPTNIRDLRIHVDWKSQTIILPIYGRPVPFHINSYKNGSKNEEGEYTYLRLNFNSPGSSGGISKKVEELPYEESADNQFVRSITLRSKDGDRMSETFKQIADLKKEATKREQERKALADVVQQDKLIENKTGRTKRLDQIFVRPNPDTKRVPSTVFIHENGIRFQSPLRTDSRIDILFSNIKNLIFQSCKGELIVVIHIHLKNPILMGKKKIQDVQFYREASDMSVDETGGGRRGQSRFRRYGDEDELEQEQEERRKRAALDKEFKYFADAIAEASNGLLTVENTFRDLGFQGVPNRSAVFCMPTTDCLVQLIEPPFLVINLEEVEICILERVQFGLKNFDMVFVYKDFNKPVTHINTVPIESLDFLKQWLTDMDIPYTVSTINLNWATIMKSLQDDPYQFFLDGGWNFLATGSDDEASDESEEEVSEYEASEDDVSDESAFSEDEEGSEVDDDISGDESEDYTGDESEEGEDWDELEKKAARADRGANFRD
chain 2: B1 chain 2
notes: Spt16 of budding yeast with residues 2–484 deleted (spt16-ΔN); Pob3, subunit of the FACT complex, budding yeast; co-purified with tagged Spt16-ΔN; also called Spt16-ΔN FACT complex; mutant FACT lacking the Spt16 N-terminus; source: purified from spt16-ΔN yeast cells on homemade GFP nanobody beads (500 mM NaCl wash)
Regarding B2, the binding result is listed as “binds”.
